Measured values from several laboratories, pooled; numbers as filed in NIAID ChemDB.

All rows: enzyme or target tests; species: HIV-1; target: Integrase; read by: strand transfer; read-out: IC50

Blank or dashed fields: not listed here. Two numbers with a dash give a range or band. ICn is the concentration giving n% inhibition. Lines come from different laboratories, so protocols vary.

structure | strain | value
Nc1nc2ccc(NS(=O)(=O)c3cc(C(F)(F)F)ccc3Cl)cc2[nH]1 |  | 1.8 µM
CCN(CC)CCCC(C)Nc1c2ccc(Cl)cc2nc2ccc(OC)cc12 |  | >100 µM
CN1CCc2ccc([C@@H]3CC3c3ccc4cc(C(=N)N)ccc4c3)cc2C1c1ccccc1 |  | 41 µM
Cc1cn(C2CC(OP(=O)(O)OCC3OC(n4ccc(N)nc4=O)CC3O)C(COP(=O)(O)O)O2)c(=O)[nH]c1=O |  | 37 µM
NC(N)=NC(N)=Nc1cccc(S(=O)(=O)c2cccc(N=C(N)N=C(N)N)c2)c1 |  | >100 µM
Cc1cn(C2CC(O)C(COP(=O)(O)OC3CC(n4ccc(N)nc4=O)OC3COP(=O)(O)O)O2)c(=O)[nH]c1=O |  | 6 µM
[N-]=[N+]=NC(=O)c1ccc(S(=O)(=O)c2ccc(F)cc2)cc1 |  | 90 µM
N=C(N)c1ccc2cc(C#Cc3ccc4ccccc4c3)ccc2c1 |  | 13 µM
[N-]=[N+]=NCc1cccc(C(=O)CC(=O)C(=O)O)c1 |  | 0.33 µM
O=C1C=CC(=O)c2c(O)ccc(O)c21 |  | 2.5 µM
CC(O)C(NCNC(=O)C1=C(O)C2(O)C(=O)C3=C(O)c4c(O)cccc4C(C)(O)C3CC2C(N(C)C)C1=O)C(=O)O | RF | 1 µM
C/C=C/[C@@H]1C=C[C@@H]2C[C@H](C)CC[C@H]2[C@]1(C)/C(O)=C1/C(=O)[C@H](CO)N(C)C1=O |  | 7–15 µM
CCCCCCCCCCCCCCCCOC(=O)C(CCSC)NCNc1ccc(S(=O)(=O)c2ccc(NCNC(CCSC)C(=O)OCCCCCCCCCCCCCCCC)cc2)cc1 |  | >100 µM
COc1cccc2c1C(=O)c1c(O)c3c(c(O)c1C2=O)C[C@@](O)(C(=O)CO)C[C@@H]3O |  | >100 µM
O=[N+]([O-])c1cc(Cl)ccc1S(=O)(=O)c1ccccc1 |  | 82.5 µM
CC[n+]1c(-c2ccccc2)c2cc(N)ccc2c2ccc(N)cc21 |  | 5.66 µM
CC(C)C1=NCCc2ccc([C@@H]3CC3c3ccc4cc(C(=N)N)ccc4c3)cc21 |  | 183 µM
CC(C)c1ccc(C(c2ccc(OCC(=O)O)cc2)c2ccc(C(C)C)cc(=O)c2O)c(O)c(=O)c1 | RF | 2.3 µM
CC(=O)c1cc(S(=O)(=O)c2ccc(O)c(C(C)=O)c2)ccc1O |  | >100 µM
Cc1cnc(NCCCN(C)C)c2c1[nH]c1ccc3cc(O)ccc3c12 |  | 31.4 µM
CC(C)/C=C/c1cc(C(=O)Nc2cccc(OC3CCCC3)c2)cc2ccc(C(=N)N)cc12 |  | 2.6 µM
O=[N+]([O-])c1ccccc1S(=O)(=O)c1ccc(Cl)cc1 |  | >100 µM
CCCCC[C@H]1C(C)=C[C@H]2C[C@@H](C)CC[C@@H]2[C@@]1(C)/C(O)=C1/C(=O)[C@@H](CO)N(C)C1=O |  | 15–20 µM
CC(C)CCCCCCCCCCCSCNc1ccc(S(=O)(=O)c2ccc(NCSCCCCCCCCCCCC(C)C)cc2)cc1 |  | 90 µM
Cc1cn(C2CC(O)C(COP(=O)(O)OC3CC(n4cnc5c(N)ncnc54)OC3COP(=O)(O)O)O2)c(=O)[nH]c1=O |  | 7 µM
O=[N+]([O-])c1cc(S(=O)(=O)c2ccc(F)c([N+](=O)[O-])c2)ccc1F |  | 59 µM
CN(C)[C@H]1C(=O)C(C(=O)NCN2CCN(C(=N)N=C(N)N)CC2)=C(O)[C@]2(O)C(=O)C3=C(O)c4c(O)cccc4[C@](C)(O)[C@@H]3C[C@H]12 | RF | 0.3 µM
Cn1cc(NC(=O)c2cc(NC(=O)c3cc(NC=O)cn3C)cn2C)cc1C(=O)NCCC(=N)N |  | >100 µM
CN(C)C1C(=O)C(C(=O)NCNC2C(=O)N3C2SC(C)(C)C3C(=O)O)=C(O)C2(O)C(=O)C3=C(O)c4c(O)cccc4C(C)(O)C3CC12 | RF | 2.8 µM
COc1cc([C@@H]2c3cc4c(cc3[C@@H](O[C@@H]3O[C@@H]5CO[C@@H](C)O[C@H]5[C@H](O)[C@H]3O)[C@H]3COC(=O)[C@H]23)OCO4)cc(OC)c1O |  | >100 µM
Nc1nc2c(ncn2C2CC(O)C(COP(=O)(O)OC3CC(n4cnc5c(=O)[nH]c(N)nc54)OC3COP(=O)(O)O)O2)c(=O)[nH]1 |  | 11.5 µM
CC(C)(C)c1cc(/C=C2/SC(=S)N(NC(=S)C(=O)Nc3ccc(O)cc3)C2=O)c(O)c(C(C)(C)C)c1 |  | >100 µM
CC(=O)O[C@H](C)[C@@H]1C2=C(C(=O)C[C@]1(C)O)C(=O)c1c(ccc(-c3ccc4c(c3O)C(=O)C3=C(C4=O)[C@@H]([C@@H](C)OC(C)=O)[C@@](C)(O)CC3=O)c1O)C2=O | RF | 140 µM
CC[C@@]1(O)C(=O)OCc2c1cc1n(c2=O)Cc2cc3c(N)cccc3nc2-1 |  | >100 µM
CN(C)C1C(=O)C(C(=O)NCNC(CCS(C)=O)C(=O)[O-])=C(O)C2(O)C(=O)C3=C(O)c4c(O)cccc4C(C)(O)C3CC12.[Na+] | RF | 1.7 µM
Cc1cn(C2CC(O)C(COP(=O)(O)OC3CC(n4cnc5c(=O)[nH]c(N)nc54)OC3COP(=O)(O)O)O2)c(=O)[nH]c1=O |  | 7.5 µM

For reference, 5 entries again:

structure	strain	value
CCCCCCCCCCCCCCCCOC(=O)C(CCSC)NCNc1ccc(S(=O)(=O)c2ccc(NCNC(CCSC)C(=O)OCCCCCCCCCCCCCCCC)cc2)cc1		>100 µM
Cc1cn(C2CC(O)C(COP(=O)(O)OC3CC(n4cnc5c(N)ncnc54)OC3COP(=O)(O)O)O2)c(=O)[nH]c1=O		7 µM
CC(C)(C)c1cc(/C=C2/SC(=S)N(NC(=S)C(=O)Nc3ccc(O)cc3)C2=O)c(O)c(C(C)(C)C)c1		>100 µM
O=C1C=CC(=O)c2c(O)ccc(O)c21		2.5 µM
COc1cccc2c1C(=O)c1c(O)c3c(c(O)c1C2=O)C[C@@](O)(C(=O)CO)C[C@@H]3O		>100 µM